Legend:
[1] = test system: aerobic gram-positive bacteria; experiment: In vitro antibacterial activity, aerobic gram-positive bacteria (summary); format: cell-based; conditions: all tested, incl. aminoglycoside or penicillin-resistant staphylococci
anaerobic bacteria = experiment: In vitro antibacterial activity, anaerobic bacteria (summary); format: cell-based; conditions: gram-positive and negative, incl. clindamycin-resistant C. difficile and clindamycin or ampicillin-resistant B. fragilis

## COc1cccc2c1N[C@H](O)[C@@H]1CC(/C=C/C(=O)N(C)C)=CN1C2=O [BMY-28121A]
[1]
  susceptibility of aerobic gram-positive bacteria: moderately susceptible
Anaerobic bacteria
  inhibition of anaerobic bacteria: inhibited all

Reference: patent US4683230A, “BMY-28121, a new antitumor antibiotic” (Bristol-Myers Company, priority 1985, dated 1987)
